According to patent publication US8829030B2 (priority 2002, dated 2014):
The structures given here were assigned with low confidence; some may be wrong.

Chains of the proteins cited; added tags and fusions are not shown. Residues count along the entry.
UniProt P26663, 2420-3010 limits assumed: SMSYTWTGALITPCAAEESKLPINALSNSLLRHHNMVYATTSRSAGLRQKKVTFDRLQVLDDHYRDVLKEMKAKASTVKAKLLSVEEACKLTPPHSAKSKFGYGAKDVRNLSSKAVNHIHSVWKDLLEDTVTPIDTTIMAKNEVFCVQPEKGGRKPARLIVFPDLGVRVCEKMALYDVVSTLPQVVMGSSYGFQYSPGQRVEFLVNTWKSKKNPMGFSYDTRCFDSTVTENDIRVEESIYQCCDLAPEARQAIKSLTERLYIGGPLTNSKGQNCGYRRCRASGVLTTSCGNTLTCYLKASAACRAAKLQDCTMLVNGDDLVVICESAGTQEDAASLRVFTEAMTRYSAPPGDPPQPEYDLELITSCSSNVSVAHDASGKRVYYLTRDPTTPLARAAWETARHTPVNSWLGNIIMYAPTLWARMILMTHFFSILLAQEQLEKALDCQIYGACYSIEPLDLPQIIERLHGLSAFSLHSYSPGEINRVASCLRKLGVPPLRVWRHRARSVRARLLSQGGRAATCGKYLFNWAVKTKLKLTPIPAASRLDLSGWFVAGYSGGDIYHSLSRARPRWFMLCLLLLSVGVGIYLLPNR

Biological target: recombinant HCV RNA-dependent RNA polymerase (NS5B protein) (Hepatitis C virus genotype 1b, UniProt P26663)
Assay: In vitro HCV RdRp Flashplate scintillation proximity assay (STREP-FLASH ASSAY)
Assay type: biochemical, HCV-Bk strain
Conditions: read-out: Activity (polymerase activity, IC50)

CC1CCC(F)(C(=O)N(c2cc(-c3ccccc3)sc2C(=O)O)C(C)C)CC1 (stereo not drawn) [Compound 9, Trans-3-[(1-Fluoro-4-methyl-cyclohexanecarbonyl)-isopropyl-amino]-5-phenyl-thiophene-2-carboxylic acid]
IC50: > 20 µM
